A mixed list of measured activities; the numbers were collected in NIAID ChemDB.

Common to all: growth or infection tests

Neighbouring rows are from separate reports. Fold resistance has wild type as its base. ECn is the concentration giving n% inhibition of infection, replication or growth. Blank or dashed fields: not listed here. Percent inhibition refers to the dose given; in toxicity tests it is the harm to the cells. MIC50, MIC90 and the like: level of inhibition, or share of isolates inhibited.

structure | mutations | read by | tested at | read-out | strain or isolate | cell line | organism | value
CCCSc1ccc2nc(NC(=O)OC)[nH]c2c1 |  | cytopathic effect | 1 µg/mL | inhibition |  | MRC-5 fibroblasts | Encephalitozoon cuniculi | 100%
C=CCc1ccc(O)c(-c2ccc(O)c(CC=C)c2)c1 |  | broth dilution |  | MIC | YL 319 |  | Candida albicans | 128 µg/mL
CO[C@H]1/C=C/O[C@@]2(C)Oc3c(C)c(O)c4c(=O)c(c5oc6cc(N7CCN(CC(C)C)CC7)cc(=O)c6nc5c4c3=C2O)NC(=O)/C(C)=C\C=C\[C@H](C)[C@H](O)[C@@H](C)[C@@H](O)[C@@H](C)[C@H](OC(C)=O)[C@@H]1C |  |  |  | MIC | SMITH |  | Staphylococcus aureus | 0.0078 µg/mL
O=C(Nc1ccccc1)c1c(O)[nH]c(=S)[nH]c1=O |  | PCR |  | EC50 |  | Akata-Bx1 | Epstein-Barr virus | 42.76 µM
CCCCCCCCCC(=O)N[C@H]1[C@H](Oc2c3cc4cc2Oc2ccc(cc2Cl)[C@@H](O[C@@H]2O[C@H](CO)[C@@H](O)[C@H](O)[C@H]2NC(C)=O)[C@@H]2NC(=O)[C@H](NC(=O)[C@@H]4NC(=O)[C@H]4NC(=O)[C@@H](Cc5ccc(c(Cl)c5)O3)NC(=O)[C@H](N)c3ccc(O)c(c3)Oc3cc(O)cc4c3)c3ccc(O)c(c3)-c3c(O[C@H]4O[C@H](CO)[C@@H](O)[C@H](O)[C@@H]4O)cc(O)cc3[C@H](C(=O)O)NC2=O)O[C@H](CO)[C@@H](O)[C@@H]1O |  |  |  | MIC50 | 25 strains (ofloxacin-resistant) |  | Staphylococcus aureus | 1 µg/mL
NC(N)=NS(=O)(=O)c1ccc(N)cc1 |  | cytopathic effect | 5 µg/mL | inhibition |  | MRC-5 fibroblasts | Encephalitozoon cuniculi | 0%
NC12CC3CC(CC(C3)C1)C2 |  | plaque count |  | EC50 | MIE/1/93 | MDCK | Influenza B virus | >50 µg/mL
CC(=O)NC[C@H]1CN(c2ccc(N3CCN(C(=O)CO)CC3)c(F)c2)C(=O)O1 |  |  |  | MIC50 | Penicillin-susceptible |  | Streptococcus pneumoniae | 0.5 µg/mL
Nc1ccn(C[C@@H](CO)OCP(=O)(O)O)c(=O)n1 |  | virus yield |  | EC90 | Chicago (type 1) |  | Adenovirus | 20 µg/mL
NC(=O)c1ncn([C@@H]2O[C@H](CO)[C@@H](O)[C@H]2O)n1 |  | plaque count |  | EC50 | K656 | HEP-2 | Respiratory syncytial virus | 14.7 µM
Nc1nc2c(ncn2CCOCP(=O)(O)O)c(=O)[nH]1 |  | neutral red |  | EC50 | C243 (TYPE 3) |  | Parainfluenza virus | 5 µg/mL
CN(C)c1cc(NC(=O)CNC(C)(C)C)c(O)c2c1C[C@H]1C[C@H]3[C@H](N(C)C)C(=O)C(C(N)=O)=C(O)[C@@]3(O)C(=O)C1=C2O |  | broth dilution |  | MIC | X40 |  | Mycobacterium abscessus | 1 µg/mL
Nc1ncnc2c1ncn2[C@H]1C=C[C@H](O)[C@@H]1O |  | virus yield |  | EC50 |  | CV-1 | Measles virus | >100 µg/mL
O=c1cnn([C@@H]2O[C@H](CO)[C@@H](O)[C@H]2O)c(=O)[nH]1 |  | cytopathic effect / visual reading |  | EC50 | NEW YORK | MA-104 | West Nile virus | 0.1 µg/mL
CO[C@H]1/C=C/O[C@@]2(C)Oc3c(C)c(O)c4c(O)c(c5c(c4c3C2=O)NC2(CCN(CC(C)C)CC2)N=5)=NC(=O)/C(C)=C\C=C\[C@H](C)[C@H](O)[C@@H](C)[C@@H](O)[C@@H](C)[C@H](OC(C)=O)[C@@H]1C |  |  |  | MIC90 | 20 strains (methicillin-resistant) |  | Staphylococcus aureus | 0.0625 µg/mL
NC(=O)c1ncn([C@@H]2O[C@H](CO)[C@@H](O)[C@H]2O)n1 |  | cytopathic effect |  | EC50 | Halonen | CV-1 | Measles virus | 1 µg/mL
Cc1ccc(C(=O)Nc2ccc(S(=O)(=O)O)c3cc(S(=O)(=O)O)cc(S(=O)(=O)O)c23)cc1NC(=O)c1cccc(NC(=O)Nc2cccc(C(=O)Nc3cc(C(=O)Nc4ccc(S(=O)(=O)O)c5cc(S(=O)(=O)O)cc(S(=O)(=O)O)c45)ccc3C)c2)c1 |  | cytopathic effect |  | EC50 | Uganda | VERO | West Nile virus | 20 µg/mL
Nc1nc2c(ncn2COCOCP(=O)(O)O)c(=O)[nH]1 |  | virus yield |  | EC90 | SF (TYPE 5) |  | Parainfluenza virus | 31 µg/mL
Cc1onc(-c2ccccc2)c1C(=O)N[C@@H]1C(=O)N2[C@@H]1SC(C)(C)[C@@H]2C(=O)O |  |  |  | MIC90 | 25 strains (methicillin-susceptible) |  | Staphylococcus aureus | 1 µg/mL
CN(C)c1ccc(O)c2c1C[C@H]1C[C@H]3[C@H](N(C)C)C(=O)C(C(N)=O)=C(O)[C@@]3(O)C(=O)C1=C2O |  | cytopathic effect | 5 µg/mL | inhibition |  | MRC-5 fibroblasts | Encephalitozoon cuniculi | 4%
CC(C)(CO)C(=O)SCCOP(=O)(NCc1ccccc1)OC[C@H]1O[C@@H](n2cnc3c(=O)[nH]c(N)nc32)[C@](C)(O)[C@@H]1O | Q30K | replicon |  | fold resistance | GT1a | Replicon cells | Hepatitis C virus | 0.89
O=C1C=CN([C@@H]2O[C@H](CO)[C@@H](O)[C@H]2O)C(=O)C1 |  | cytopathic effect / visual reading |  | EC50 | Uganda | VERO | West Nile virus | 320 µg/mL
Nc1nccc2c1ncn2[C@@H]1C[C@H](CO)[C@@H](O)[C@H]1O |  | cytopathic effect |  | EC50 |  | HEP-2 | Vesicular stomatitis virus | 0.07 µg/mL
CC[C@H]1OC(=O)[C@H](C)[C@@H](O[C@H]2C[C@@](C)(OC)[C@@H](O)[C@H](C)O2)[C@H](C)[C@@H](O[C@@H]2O[C@H](C)C[C@H](N(C)C)[C@H]2O)[C@](C)(O)C[C@@H](C)CN(C)[C@H](C)[C@@H](O)[C@]1(C)O |  | cytopathic effect | 100 µg/mL | inhibition |  | MRC-5 fibroblasts | Encephalitozoon cuniculi | 28%
Cc1c(N2C[C@@H](F)[C@@H](C3(N)CC3)C2)c(F)c(N)c2c(=O)c(C(=O)O)cn([C@@H]3C[C@@H]3F)c12 |  |  |  | MIC50 | 25 strains (methicillin-susceptible) |  | Staphylococcus aureus | 0.008 µg/mL
CCCN(CCC)c1c([N+](=O)[O-])cc(S(N)(=O)=O)cc1[N+](=O)[O-] |  |  |  | EC50 | Trifluralin-resistant |  | Toxoplasma gondii | 0.2 µM
Nc1ncnc2c1ncn2Cc1c(F)cccc1Cl |  | cytopathic effect | 5 µg/mL | inhibition |  | MRC-5 fibroblasts | Encephalitozoon cuniculi | 0%
C[C@H](Cn1cnc2c(N)ncnc21)OCP(=O)(O)O |  | p27 / ELISA |  | EC50 |  | PBMC | SIV | 0.0675 µM
CCN(CC)CCCC(C)Nc1ccnc2cc(Cl)ccc12 |  | cytopathic effect | 5 µg/mL | inhibition |  | MRC-5 fibroblasts | Encephalitozoon cuniculi | 0%
Nc1ccn([C@@H]2C=C(CO)[C@@H](O)[C@@H]2O)c(=O)n1 |  | cytopathic effect |  | EC50 | NEW YORK | VERO | West Nile virus | <0.32 µg/mL
C#CC[C@@H](C(=O)N[C@H](/C=C/C(=O)OCC)C[C@@H]1CCNC1=O)n1cccc(NC(=O)c2cc(C)on2)c1=O |  | cytopathic effect / XTT |  | EC50 | Serotype 52 | H1-HELA | Rhinovirus | 0.007 µM
COc1c(N2C[C@@H]3CCCN[C@@H]3C2)c(F)cc2c(=O)c(C(=O)O)cn(C3CC3)c12 |  |  |  | MIC50 | 38 strains (ampicillin-susceptible) |  | Haemophilus influenzae | 0.03 µg/mL
O=c1[nH]c(=O)n([C@@H]2O[C@H](CO)[C@@H](O)[C@H]2O)[nH]c1=S |  | cytopathic effect |  | EC50 | NEW YORK | VERO | West Nile virus | 8 µg/mL
CC[C@H]1OC(=O)[C@H](C)[C@@H](O[C@H]2C[C@@](C)(OC)[C@@H](O)[C@H](C)O2)[C@H](C)[C@@H](O[C@@H]2O[C@H](C)C[C@H](N(C)C)[C@H]2O)[C@](C)(OC)C[C@@H](C)C(=O)[C@H](C)[C@@H](O)[C@]1(C)O |  | broth dilution |  | MIC | X7 |  | Mycobacterium massiliense | 0.125 µg/mL

A second listing of 3 rows from above:

structure	mutations	read by	tested at	read-out	strain or isolate	cell line	organism	value
O=c1[nH]c(=O)n([C@@H]2O[C@H](CO)[C@@H](O)[C@H]2O)[nH]c1=S		cytopathic effect		EC50	NEW YORK	VERO	West Nile virus	8 µg/mL
CCCCCCCCCC(=O)N[C@H]1[C@H](Oc2c3cc4cc2Oc2ccc(cc2Cl)[C@@H](O[C@@H]2O[C@H](CO)[C@@H](O)[C@H](O)[C@H]2NC(C)=O)[C@@H]2NC(=O)[C@H](NC(=O)[C@@H]4NC(=O)[C@H]4NC(=O)[C@@H](Cc5ccc(c(Cl)c5)O3)NC(=O)[C@H](N)c3ccc(O)c(c3)Oc3cc(O)cc4c3)c3ccc(O)c(c3)-c3c(O[C@H]4O[C@H](CO)[C@@H](O)[C@H](O)[C@@H]4O)cc(O)cc3[C@H](C(=O)O)NC2=O)O[C@H](CO)[C@@H](O)[C@@H]1O				MIC50	25 strains (ofloxacin-resistant)		Staphylococcus aureus	1 µg/mL
Nc1nc2c(ncn2COCOCP(=O)(O)O)c(=O)[nH]1		virus yield		EC90	SF (TYPE 5)		Parainfluenza virus	31 µg/mL